Source: paper PMC10227026, “Rapid evolution of A(H5N1) influenza viruses after intercontinental spread to North America” (2023)

Chains of the proteins cited; added tags and fusions are not shown. Lines headed by an entry give the natural chain unless they say otherwise; changes in a name come on top.
UniProt Q9Q0U7: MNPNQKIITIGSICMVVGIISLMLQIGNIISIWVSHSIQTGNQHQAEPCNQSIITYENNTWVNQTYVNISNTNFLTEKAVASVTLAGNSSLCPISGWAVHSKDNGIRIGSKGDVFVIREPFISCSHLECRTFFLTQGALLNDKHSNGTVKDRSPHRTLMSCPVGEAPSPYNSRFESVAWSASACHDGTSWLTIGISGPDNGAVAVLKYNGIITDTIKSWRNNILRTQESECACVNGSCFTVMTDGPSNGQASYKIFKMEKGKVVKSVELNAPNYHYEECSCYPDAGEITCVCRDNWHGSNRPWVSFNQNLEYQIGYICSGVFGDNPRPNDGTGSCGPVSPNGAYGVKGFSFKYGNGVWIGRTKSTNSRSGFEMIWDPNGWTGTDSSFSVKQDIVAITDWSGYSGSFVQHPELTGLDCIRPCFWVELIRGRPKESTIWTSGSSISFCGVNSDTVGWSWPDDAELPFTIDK

What was measured:
[1] = system: rg-A/CA/04 (PA I38-WT) (H1N1)pdm09
[2] = target: NA of Wigeon/SC/21 (H5N1) (Influenza A virus, UniProt Q9Q0U7)
NA of Eagle/FL/22 (H5N1) = NA of Eagle/FL/22 (H5N1) (Influenza A virus, UniProt Q9Q0U7)
NA of Ck/NL/21 (H5N1) = NA of Ck/NL/21 (H5N1) (Influenza A virus, UniProt Q9Q0U7)
NA of Eagle/NC/22 (H5N1) = NA of Eagle/NC/22 (H5N1) (Influenza A virus, UniProt Q9Q0U7)
NA of Hawk/NC/22 (H5N1) = NA of Hawk/NC/22 (H5N1) (Influenza A virus, UniProt Q9Q0U7)
NA of Scaup/GA/22 (H5N1) = NA of Scaup/GA/22 (H5N1) (Influenza A virus, UniProt Q9Q0U7)

| Compound | EC50 (Wigeon/SC/21 (H5N1)) [nM] | EC50 (Eagle/FL/22 (H5N1)) [nM] | EC50 (Ck/NL/21 (H5N1)) [nM] | EC50 (Scaup/GA/22 (H5N1)) [nM] | EC50 [1] [nM] | IC50 [2] [nM] | IC50 (NA of Eagle/FL/22 (H5N1)) [nM] | IC50 (NA of Ck/NL/21 (H5N1)) [nM] | IC50 (NA of Eagle/NC/22 (H5N1)) [nM] | IC50 (NA of Hawk/NC/22 (H5N1)) [nM] | IC50 (NA of Scaup/GA/22 (H5N1)) [nM] |
| --- | --- | --- | --- | --- | --- | --- | --- | --- | --- | --- | --- |
| O=C1c2c(O)c(=O)ccn2N([C@@H]2c3ccccc3SCc3c2ccc(F)c3F)[C@@H]2COCCN12 | 0.16 | 0.22 | 0.09 | 0.17 | 0.19 | – | – | – | – | – | – |
| oseltamivir carboxylate | – | – | – | – | – | 1.25 | 0.98 | 1.26 | 1.07 | 1.34 | 1.13 |
